From patent US7700727B2, “Compositions and kits for detecting pathogen infection” (Biokit, S.A., priority 2003, dated 2010)

System: anti-Tp antibodies in human syphilis sera
Assay: Syphilis hemagglutination assay with GST-Tp17 reagent supplemented with lysozyme
Settings: for effect of added lysozyme on intensity of hemagglutination: 3 μg lysozyme/1 μg Tp17, 4 borderline human syphilitic sera; for samples showing an improvement in sensitivity of the assay: out of 10 samples tested, 594 units of human lysozyme/μg GST-Tp17

Substance | effect of added lysozyme on intensity of hemagglutination | samples showing an improvement in sensitivity of the assay | false positive results (200 syphilis-negative blood bank samples) | samples negative without lysozyme that were positive when lysozyme was added (of 19 samples that tested negative, among 34 real positive samples)
chicken lysozyme: purified chicken egg white lysozyme (L-6876, Sigma-Aldrich; P00698) | did not enhance the response | – | – | –
human lysozyme: human lysozyme (NP_000230); breast milk-derived in Example 8, recombinant (Ventria) in Examples 10 and 16 | improves the intensity of hemagglutination | – | – | –
natural human breast milk lysozyme: purified natural human breast milk lysozyme (L-6394; Sigma-Aldrich) | – | 6 | – | –
recombinant human transgenic rice lysozyme: purified recombinant human lysozyme from transgenic rice (159-53LZ-90P; Ventria Bioscience) | – | 6 | does not give false positives results | 14
